Results: PMC8443647, “Hybrid derivative of cathelicidin and human beta defensin-2 against Gram-positive bacteria: A novel approach for the treatment of bacterial keratitis” (Scientific Reports, 2021)
Like-named read-outs stand apart in the source and are kept apart here. Peptide text beside a SMILES is read from it.

What was measured:
[1] = tested on: S. epidermidis ATCC 12228; type: cell-based, Staphylococcus epidermidis
Description: (§1) A range of Gram-positive and Gram-negative laboratory- and clinical-strain bacteria were used for the experiments. These included laboratory-strain methicillin-sensitive S. aureus (MSSA; including SH1000 and ATCC SA29213), laboratory-strain MRSA (ATCC MRSA43300), clinical-strain MRSA (MRSA-OS; an IK isolate), laboratory-strain methicillin-sensitive Staphylococcus epidermidis (MSSE; ATCC SE12228), laboratory invasive-strain P. aeruginosa (PAO1-L), and clinical cytotoxic-strain P. aeruginosa (PA-OS; an IK isolate).
(§2) In vitro antimicrobial efficacy of the antibiotics and designed HDPs was determined using an established MIC assay with broth microdilution method approved by the Clinical and Laboratory Standards Institute (CLSI)[64]. Briefly, the microorganisms were cultured on Tryptone Soya Agar (TSA) and incubated overnight for 18–21 h at 37 °C. Bacterial inoculums were subsequently prepared using the direct colony suspension method. Three to five bacterial colonies were obtained from the agar plate and inoculated into an Eppendorf tube containing 1 ml of cation-adjusted Muller-Hinton broth (caMHB), consisting of 20–25 mg/L calcium ions (Ca^2+) and 10–12.5 mg/L magnesium ions (Mg^2+). The bacterial suspension was adjusted to achieve a turbidity equivalent to 0.1 OD600 or 0.5 MacFarland, containing ~ 1.5 × 10^8 colony-forming unit (CFU)/ml, which was then further diluted in 1:150 in caMHB to reach a final bacterial concentration of ~ 1 × 10^6 colony forming units (CFU)/ml. Each treatment (peptide or antibiotic) was prepared in 1:2 serial dilution in 96-well polypropylene microplates (with a final treatment volume of 50 μl per well), followed by the addition of 50 μl of 1 × 10^6 CFU/ml bacteria into each well (with a final bacterial concentration of 5 × 10^5 CFU/ml).

MRSA ATCC 43300 = type: cell-based, Staphylococcus aureus
Description: as §1, §2

S. aureus ATCC 29213 = type: cell-based, Staphylococcus aureus
Description: as §1, §2

MRSA-OS = type: cell-based, Staphylococcus aureus
Description: as §1, §2

S. aureus SH1000 = type: cell-based, Staphylococcus aureus
Description: as §1, §2

P. aeruginosa PA-OS = type: cell-based
Description: as §1, §2

P. aeruginosa PAO1-L = type: cell-based
Description: as §1, §2

[2] = based on HC50 (hemolysis) divided by MIC without salt
[3] = based on IC50 (HCE-2 cell viability) divided by MIC without salt
[4] = based on LC50 (HCE-2) divided by MIC without salt

`CC[C@H](C)[C@H](NC(=O)[C@H](CCCNC(=N)N)NC(=O)[C@H](CCC(N)=O)NC(=O)[C@@H](NC(=O)[C@@H](NC(=O)[C@H](CCCNC(=N)N)NC(=O)[C@@H](N)CCCCN)[C@@H](C)CC)C(C)C)C(=O)N[C@@H](CCCCN)C(=O)N[C@@H](CC(=O)O)C(=O)N[C@@H](Cc1c[nH]c2ccccc12)C(=O)N[C@@H](CC(C)C)C(=O)N[C@@H](CCCNC(=N)N)C(=O)N[C@@H](CCCCN)C(=O)N[C@@H](CC(C)C)C(=O)N[C@@H](CS)C(=O)N[C@@H](CCCCN)C(=O)N[C@@H](CCCCN)C(=O)N[C@@H](Cc1c[nH]c2ccccc12)C(=O)O` [CaD23, KRIVQRIKDW LRKLCKKW] (H-KRIVQRIKDWLRKLCKKW-OH; N-terminus and C-terminus assumed) was tested, and the “Therapeutic index (TI)” value [1, 2] was > 16, the “Therapeutic index (TI)” value [1, 3] was 4.4 and the “Therapeutic index (TI)” value [1, 4] was > 16. The “Therapeutic index (TI)” value (MRSA ATCC 43300; [2]) was > 4, the “Therapeutic index (TI)” value (MRSA ATCC 43300; [3]) was 1.1 and the “Therapeutic index (TI)” value (MRSA ATCC 43300; [4]) was > 4. For the same compound, the “Therapeutic index (TI)” value (S. aureus ATCC 29213; [2]) was > 8, the “Therapeutic index (TI)” value (S. aureus ATCC 29213; [3]) was 2.2 and the “Therapeutic index (TI)” value (S. aureus ATCC 29213; [4]) was > 8. The “Therapeutic index (TI)” value (MRSA-OS; [2]) was > 8, the “Therapeutic index (TI)” value (MRSA-OS; [3]) was 2.2 and the “Therapeutic index (TI)” value (MRSA-OS; [4]) was > 8. The “Therapeutic index (TI)” value (S. aureus SH1000; [2]) was > 16, the “Therapeutic index (TI)” value (S. aureus SH1000; [3]) was 4.4 and the “Therapeutic index (TI)” value (S. aureus SH1000; [4]) was > 16. The “Therapeutic index (TI)” value (P. aeruginosa PA-OS; [2]) was > 8, the “Therapeutic index (TI)” value (P. aeruginosa PA-OS; [3]) was 2.2 and the “Therapeutic index (TI)” value (P. aeruginosa PA-OS; [4]) was > 8. The “Therapeutic index (TI)” value (P. aeruginosa PAO1-L; [2]) was > 4, the “Therapeutic index (TI)” value (P. aeruginosa PAO1-L; [3]) was 1.1 and the “Therapeutic index (TI)” value (P. aeruginosa PAO1-L; [4]) was > 4.
